Reference: patent publication US7115576B2, “Water-soluble antibiotic comprising an amino sugar, in the form of a polysaccharide conjugate” (Fresenius Kabi Deutschland GmbH, priority 2001, dated 2006)

Legend:
[1] = system: erythrocytes; test: Haemolysis comparison test (extinction of supernatant at 576 nm); type: cell-based, human
Method: Of this stock solution, three dilutions were produced in accordance with Table 2 and their haemolytic action also investigated.
Production of the erythrocyte suspension: freshly taken human blood was diluted with approximately 5 times the volume of sterile 0.9% NaCl solution (batch designation: 9055A64 produced by the company Braun Melsungen) and centrifuged for 5 minutes at a relative centrifugal acceleration of 2000. The supernatant solution was then drawn off and the sedimented erythrocytes treated twice more in the same way.
The erythrocytes thus washed were counted in a Neubauer counting chamber and—where necessary—diluted again with sterile 0.9% NaCl solution to a final concentration of approx. 5·10^8 erythrocytes per ml. This suspension is according to DIN standard usable at room temperature for up to 6 hours.
Haemolysis comparison test: 5 ml of the solution to be tested was mixed with 1 ml of the above erythrocyte suspension, transferred to a cleaned centrifuge tube and incubated in a water bath at 37±1° C. for 20 minutes. Centrifuging was then performed for 5 minutes at a relative centrifugal acceleration of 2000.
The extinction of the supernatant liquid was measured. 5 ml of the 0.9% NaCl solution and the 5% glucose solution, which were mixed with 1 ml of the erythrocyte suspension, also incubated at 37±1° C. for 20 minutes and then centrifuged as above, served as negative controls.
For the test for haemolysis, the extinctions of the respective supernatants were measured in a photometer against the negative controls at a wavelength of 576 nm using a cuvette 10 mm in thickness. Owing to the differing stainings of the solutions, the extinction was also measured for the purpose of comparing the solutions without erythrocyte suspension.

[2] = system: sheep erythrocytes; details: compared with commercially available amphotericin B deoxycholate formulations

## Amphotericin B-HES Conjugate [Ampho HES]
[1]; 0.4 mg/ml amphotericin B in the test batch
  haemolytic activity: slight haemolytic activity
[1]; 0.83 mg/ml amphotericin B in the test batch
  haemolytic activity: strong haemolytic activity
[1]; up to 0.2 mg amphotericin B per ml
  haemolytic action: no haemolytic action
[2]
  in vitro toxicity (haemolysis): considerably less
